Measured values from article PMC9104152, “Phosphoproteomics Unravel HBV Triggered Rewiring of Host Phosphosignaling Events” (International Journal of Molecular Sciences, 2022).

B1: Q99543 1xPhospho [S47(99.8)] (protein, UniProt Q99543 1-621, looked up)
DnaJ homolog subfamily C …: MLLLPSAADGRGTAITHALTSASTLCQVEPVGRWFEAFVKRRNRNASASFQELEDKKELSEESEDEELQLEEFPMLKTLDPKDWKNQDHYAVLGLGHVRYKATQRQIKAAHKAMVLKHHPDKRKAAGEPIKEGDNDYFTCITKAYEMLSDPVKRRAFNSVDPTFDNSVPSKSEAKDNFFEVFTPVFERNSRWSNKKNVPKLGDMNSSFEDVDIFYSFWYNFDSWREFSYLDEEEKEKAECRDERRWIEKQNRATRAQRKKEEMNRIRTLVDNAYSCDPRIKKFKEEEKAKKEAEKKAKAEAKRKEQEAKEKQRQAELEAARLAKEKEEEEVRQQALLAKKEKDIQKKAIKKERQKLRNSCKTWNHFSDNEAERVKMMEEVEKLCDRLELASLQCLNETLTSCTKEVGKAALEKQIEEINEQIRKEKEEAEARMRQASKNTEKSTGGGGNGSKNWSEDDLQLLIKAVNLFPAGTNSRWEVIANYMNIHSSSGVKRTAKDVIGKAKSLQKLDPHQKDDINKKAFDKFKKEHGVVPQADNATPSERFEGPYTDFTPWTTEEQKLLEQALKTYPVNTPERWEKIAEAVPGRTKKDCMKRYKELVEMVKAKKAAQEQVLNASRAKK
modifications: phosphorylated S47
B2: Q99543 1xPhospho [S] (protein, UniProt Q99543 1-621, looked up)
DnaJ homolog subfamily C …: B1 DnaJ homolog subfamily C …
modifications: monophosphorylated
B3: Q9Y2H0 1xPhospho [T915(100)] (protein, UniProt Q9Y2H0 1-992, looked up)
Disks large-associated …: MKGLGDSRPRHLSDSLDPPHEPLFAGTDRNPYLLSPTEAFAREARFPGQNTLPGDGLFPLNNQLPPPSSTFPRIHYNSHFEVPEESPFPSHAQATKINRLPANLLDQFEKQLPIHRDGFSTLQFPRGEAKARGESPGRIRHLVHSVQRLFFTKAPSLEGTAGKVGGNGSKKGGMEDGKGRRAKSKERAKAGEPKRRSRSNISGWWSSDDNLDGEAGAFRSSGPASGLMTLGRQAERSQPRYFMHAYNTISGHMLKTTKNNTTELTAPPPPPAPPATCPSLGVGTDTNYVKRGSWSTLTLSHAHEVCQKTSATLDKSLLKSKSCHQGLAYHYLQVPGGGGEWSTTLLSPRETDAAAEGPIPCRRMRSGSYIKAMGDEDSDESGGSPKPSPKTAARRQSYLRATQQSLGEQSNPRRSLDRLDSVDMLLPSKCPSWEEDYTPVSDSLNDSSCISQIFGQASLIPQLFGHEQQVREAELSDQYEAACESACSEAESTAAETLDLPLPSYFRSRSHSYLRAIQAGCSQEEDSVSLQSLSPPPSTGSLSNSRTLPSSSCLVAYKKTPPPVPPRTTSKPFISVTVQSSTESAQDTYLDSQDHKSEVTSQSGLSNSSDSLDSSTRPPSVTRGGVAPAPEAPEPPPKHAALKSEQGTLTSSESHPEAAPKRKLSSIGIQVDCIQPVPKEEPSPATKFQSIGVQVEDDWRSSVPSHSMSSRRDTDSDTQDANDSSCKSSERSLPDCTPHPNSISIDAGPRQAPKIAQIKRNLSYGDNSDPALEASSLPPPDPWLETSSSSPAEPAQPGACRRDGYWFLKLLQAETERLEGWCCQMDKETKENNLSEEVLGKVLSAVGSAQLLMSQKFQQFRGLCEQNLNPDANPRPTAQDLAGFWDLLQLSIEDISMKFDELYHLKANSWQLVETPEKRKEEKKPPPPVPKKPAKSKPAVSRDKASDASDKQRQEARKRLLAAKRAASVRQNSATESADSIEIYVPEAQTRL
modifications: phosphorylated T915
B4: P83436 1xPhospho [S506(100)] (protein, UniProt P83436 1-770, looked up)
Conserved oligomeric Golgi …: MDFSKFLADDFDVKEWINAAFRAGSKEAASGKADGHAATLVMKLQLFIQEVNHAVEETSHQALQNMPKVLRDVEALKQEASFLKEQMILVKEDIKKFEQDTSQSMQVLVEIDQVKSRMQLAAESLQEADKWSTLSADIEETFKTQDIAVISAKLTGMQNSLMMLVDTPDYSEKCVHLEALKNRLEALASPQIVAAFTSQAVDQSKVFVKVFTEIDRMPQLLAYYYKCHKVQLLAAWQELCQSDLSLDRQLTGLYDALLGAWHTQIQWATQVFQKPHEVVMVLLIQTLGALMPSLPSCLSNGVERAGPEQELTRLLEFYDATAHFAKGLEMALLPHLHEHNLVKVTELVDAVYDPYKPYQLKYGDMEESNLLIQMSAVPLEHGEVIDCVQELSHSVNKLFGLASAAVDRCVRFTNGLGTCGLLSALKSLFAKYVSDFTSTLQSIRKKCKLDHIPPNSLFQEDWTAFQNSIRIIATCGELLRHCGDFEQQLANRILSTAGKYLSDSCSPRSLAGFQESILTDKKNSAKNPWQEYNYLQKDNPAEYASLMEILYTLKEKGSSNHNLLAAPRAALTRLNQQAHQLAFDSVFLRIKQQLLLISKMDSWNTAGIGETLTDELPAFSLTPLEYISNIGQYIMSLPLNLEPFVTQEDSALELALHAGKLPFPPEQGDELPELDNMADNWLGSIARATMQTYCDAILQIPELSPHSAKQLATDIDYLINVMDALGLQPSRTLQHIVTLLKTRPEDYRQVSKGLPRRLATTVATMRSVNY
modifications: phospho S506
B5: P25686 1xPhospho [S/Y/T] (protein, UniProt P25686 2-321, looked up)
DnaJ homolog subfamily B …: ASYYEILDVPRSASADDIKKAYRRKALQWHPDKNPDNKEFAEKKFKEVAEAYEVLSDKHKREIYDRYGREGLTGTGTGPSRAEAGSGGPGFTFTFRSPEEVFREFFGSGDPFAELFDDLGPFSELQNRGSRHSGPFFTFSSSFPGHSDFSSSSFSFSPGAGAFRSVSTSTTFVQGRRITTRRIMENGQERVEVEEDGQLKSVTINGVPDDLALGLELSRREQQPSVTSRSGGTQVQQTPASCPLDSDLSEDEDLQLAMAYSLSEMEAAGKKPAGGREAQHRRQGRPKAQHQDPGLGGTQEGARGEATKRSPSPEEKASRC
modifications: phosphorylated
B6: P35659 1xPhospho [S32(100)] (protein, UniProt P35659 2-375, looked up)
Protein DEK: SASAPAAEGEGTPTQPASEKEPEMPGPREESEEEEDEDDEEEEEEEKEKSLIVEGKREKKKVERLTMQVSSLQREPFTIAQGKGQKLCEIERIHFFLSKKKTDELRNLHKLLYNRPGTVSSLKKNVGQFSGFPFEKGSVQYKKKEEMLKKFRNAMLKSICEVLDLERSGVNSELVKRILNFLMHPKPSGKPLPKSKKTCSKGSKKERNSSGMARKAKRTKCPEILSDESSSDEDEKKNKEESSDDEDKESEEEPPKKTAKREKPKQKATSKSKKSVKSANVKKADSSTTKKNQNSSKKESESEDSSDDEPLIKKLKKPPTDEELKETIKKLLASANLEEVTMKQICKKVYENYPTYDLTERKDFIKTTVKELIS
modifications: phosphorylated S32
B7: P35659 2xPhospho [S306(100); S307(100)] (protein, UniProt P35659 2-375, looked up)
Protein DEK: B6 Protein DEK
modifications: phosphorylated S306, S307
B8: P35659 2xPhospho [S] (protein, UniProt P35659 2-375, looked up)
Protein DEK: B6 Protein DEK
modifications: diphosphorylated
B9: P35659 3xPhospho [S306(99.6); S307(99.6); S] (protein, UniProt P35659 2-375, looked up)
Protein DEK: B6 Protein DEK
modifications: triply phosphorylated incl. S306, S307
B10: Q9UEY8 1xPhospho [S677(100)] (protein, UniProt Q9UEY8 2-706, looked up)
Gamma-adducin: SSDASQGVITTPPPPSMPHKERYFDRINENDPEYIRERNMSPDLRQDFNMMEQRKRVTQILQSPAFREDLECLIQEQMKKGHNPTGLLALQQIADYIMANSFSGFSSPPLSLGMVTPINDLPGADTSSYVKGEKLTRCKLASLYRLVDLFGWAHLANTYISVRISKEQDHIIIIPRGLSFSEATASNLVKVNIIGEVVDQGSTNLKIDHTGFSPHAAIYSTRPDVKCVIHIHTLATAAVSSMKCGILPISQESLLLGDVAYYDYQGSLEEQEERIQLQKVLGPSCKVLVLRNHGVVALGETLEEAFHYIFNVQLACEIQVQALAGAGGVDNLHVLDFQKYKAFTYTVAASGGGGVNMGSHQKWKVGEIEFEGLMRTLDNLGYRTGYAYRHPLIREKPRHKSDVEIPATVTAFSFEDDTVPLSPLKYMAQRQQREKTRWLNSPNTYMKVNVPEESRNGETSPRTKITWMKAEDSSKVSGGTPIKIEDPNQFVPLNTNPNEVLEKRNKIREQNRYDLKTAGPQSQLLAGIVVDKPPSTMQFEDDDHGPPAPPNPFSHLTEGELEEYKRTIERKQQGLEDAEQELLSDDASSVSQIQSQTQSPQNVPEKLEENHELFSKSFISMEVPVMVVNGKDDMHDVEDELAKRVSRLSTSTTIENIEITIKSPEKIEEVLSPEGSPSKSPSKKKKKFRTPSFLKKNKKKEKVEA
modifications: phosphorylated S677
B11: P14868 1xPhospho [S249(100)] (protein, UniProt P14868 1-501, looked up)
Aspartate--tRNA ligase, …: MPSASASRKSQEKPREIMDAAEDYAKERYGISSMIQSQEKPDRVLVRVRDLTIQKADEVVWVRARVHTSRAKGKQCFLVLRQQQFNVQALVAVGDHASKQMVKFAANINKESIVDVEGVVRKVNQKIGSCTQQDVELHVQKIYVISLAEPRLPLQLDDAVRPEAEGEEEGRATVNQDTRLDNRVIDLRTSTSQAVFRLQSGICHLFRETLINKGFVEIQTPKIISAASEGGANVFTVSYFKNNAYLAQSPQLYKQMCICADFEKVFSIGPVFRAEDSNTHRHLTEFVGLDIEMAFNYHYHEVMEEIADTMVQIFKGLQERFQTEIQTVNKQFPCEPFKFLEPTLRLEYCEALAMLREAGVEMGDEDDLSTPNEKLLGHLVKEKYDTDFYILDKYPLAVRPFYTMPDPRNPKQSNSYDMFMRGEEILSGAQRIHDPQLLTERALHHGIDLEKIKAYIDSFRFGAPPHAGGGIGLERVTMLFLGLHNVRQTSMFPRDPKRLTP
modifications: phospho S249
B12: Q99956 1xPhospho [S16(100)] (protein, UniProt Q99956 1-384, looked up)
Dual specificity protein …: MEGLGRSCLWLRRELSPPRPRLLLLDCRSRELYESARIGGALSVALPALLLRRLRRGSLSVRALLPGPPLQPPPPAPVLLYDQGGGRRRRGEAEAEAEEWEAESVLGTLLQKLREEGYLAYYLQGGFSRFQAECPHLCETSLAGRAGSSMAPVPGPVPVVGLGSLCLGSDCSDAESEADRDSMSCGLDSEGATPPPVGLRASFPVQILPNLYLGSARDSANLESLAKLGIRYILNVTPNLPNFFEKNGDFHYKQIPISDHWSQNLSRFFPEAIEFIDEALSQNCGVLVHCLAGVSRSVTVTVAYLMQKLHLSLNDAYDLVKRKKSNISPNFNFMGQLLDFERSLRLEERHSQEQGSGGQASAASNPPSFFTTPTSDGAFELAPT
modifications: phosphorylated S16
B13: Q9BTE7 1xPhospho [S9(100)] (protein, UniProt Q9BTE7 1-237, looked up)
DCN1-like protein 5: MPVKKKRKSPGVAAAVAEDGGLKKCKISSYCRSQPPARLISGEEHFSSKKCLAWFYEYAGPDEVVGPEGMEKFCEDIGVEPENIIMLVLAWKLEAESMGFFTKEEWLKGMTSLQCDCTEKLQNKFDFLRSQLNDISSFKNIYRYAFDFARDKDQRSLDIDTAKSMLALLLGRTWPLFSVFYQYLEQSKYRVMNKDQWYNVLEFSRTVHADLSNYDEDGAWPVLLDEFVEWQKVRQTS
modifications: phosphorylated S9

The molecules below were run on HepG2-NTCP cells (assay: TMT-based phosphoproteome profiling of HBV-infected vs mock HepG2-NTCP (HBV/mock ratio)). Details: phosphosite abundance ratio of host protein, HBV-infected vs mock HepG2-NTCP, 7dpi, sheet Up-regulated.
Design: species or system human

Compared with B1, B2 is higher in HBV/mock: 1.384 for the first, 1.894 for the second.

Compared with B3, B4 is higher in HBV/mock: 1.326 for the first, 1.517 for the second.

Going from B5 to B6, the HBV/mock rises from 1.3534 to 2.028.

First: B7
Second: B8
The HBV/mock of the first is lower: 4.651 for the first, 6.454 for the second.

Going from B9 to B10, the HBV/mock falls from 4.308 to 1.388.

First: B11
Second: B12
The HBV/mock of the first is higher: 1.466 for the first, 1.337 for the second.

In the case of B13, the HBV/mock is reported as 1.693.
